Measured values: article PMC7762994 (Viruses, 2020)

Tested on: host proteins (proteome-wide)
Assay: 2D-TPP in U87 cells (proteome-wide)
Type: binding, Homo sapiens
Settings: 1, 3, 10 and 30 μM, of 8417 proteins detected

CCOC(=O)c1cnn(-c2cccc3c2[nH]c(=O)n3C2CCN(C(=O)Nc3ccc(I)cc3)CC2)c1 [TH6744, ethyl 1-(1-(1-((4-iodophenyl)carbamoyl)piperidin-4-yl)-2-oxo-2,3-dihydro-1H-benzo[d]imidazol-4-yl)-1H-pyrazole-4-carboxylate]
number of proteins with dose-dependent thermal destabilization: 126
number of proteins with dose-dependent thermal stabilization: 94
